PubChem BioAssay AID504761 – Drosophila RNAi Screening Center | 2011
The screen tested about 22,000 reagents; below is a random part of those with a known target gene and a result. Of all reagents, 116 (0.52%) were called active. 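Calls depend on retest data that are not deposited; infection was ranked per plate without normalising between plates; the unit of the infection score is not given.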 The raw values are shown without normalisation. The numbers tell different reagents against one gene apart. Names joined by + are all predicted targets of the reagent. No sequences are given here. Not given: the amount of reagent, the time to read-out.

Assay: 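Insect host genes that dengue virus relies on to spread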 (primary screen)
Cell system: D.Mel-2 cells from Drosophila
Knock-down reagent: long dsRNA against Drosophila genes
Conditions: infection with dengue virus type 2; dose and infection time not stated
Measurement: 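Per well on two replicate plates, imaging gave the percent of cells positive for viral envelope protein, ranked by infection, and a nuclear count of cells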
Direction: infection score: higher = more virus-infected cells; cell count: higher = more cells in the well
Rule for the call: 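Low infection ranks in the two replicates (chance level up to 0.065) followed by a retest with a 1.5-fold or larger significant decrease, p below 0.05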
Calls: active = confirmed: knock-down lowers infection; inactive = not picked or not confirmed

The opening 2 entries, to show the layout:
| Target gene | reagent no. | infection score, replicate 1 | infection score, replicate 2 | cell count, replicate 1 | cell count, replicate 2 | activity call |
| --- | --- | --- | --- | --- | --- | --- |
| CG34056 | 1 | 2.18 | 0.77 | 6464 | 6390 | inactive |
| CG43394 | 1 | 0.11 | 0.14 | 6227 | 6408 | inactive |

Results, from the first entry:
| Target gene | reagent no. | infection score, replicate 1 | infection score, replicate 2 | cell count, replicate 1 | cell count, replicate 2 | activity call |
| --- | --- | --- | --- | --- | --- | --- |
| CG34056 | 1 | 2.18 | 0.77 | 6464 | 6390 | inactive |
| CG43394 | 1 | 0.11 | 0.14 | 6227 | 6408 | inactive |
| CG43394 | 2 | 14.2 | 8.9 | 6047 | 5806 | inactive |
| CG6283 | 1 | 0.77 | 4.56 | 6486 | 746 | inactive |
| CG6283 | 2 | 17.7 | 11.3 | 5963 | 6315 | inactive |
| Nelf-A | 1 | 3.14 | 2.62 | 6268 | 5943 | inactive |
| CG9416 | 1 | 0.62 | 1.29 | 6620 | 6683 | inactive |
| CG32147 | 1 | 2.97 | 2.28 | 5661 | 5604 | inactive |
| CG32147 | 2 | 4.16 | 2.21 | 6443 | 5922 | inactive |
| CG17560 | 1 | 1.14 | 10.5 | 6468 | 6269 | inactive |
| lncRNA:CR32553 | 1 | 3.6 | 3.09 | 6473 | 6480 | inactive |
| Gdh | 1 | 4.16 | 2.85 | 5939 | 7163 | inactive |
| Gdh | 2 | – | – | 441 | 381 | inactive |
| GCS2beta | 1 | 7.36 | 2.48 | 6710 | 6810 | inactive |
| GCS2beta | 2 | 10.8 | 9.22 | 6596 | 6494 | inactive |
| barc | 1 | 22.9 | 16.8 | 2723 | 5017 | inactive |
| CG4752 | 1 | 13.8 | 14.1 | 5986 | 5986 | inactive |
| CG4752 | 2 | 12.6 | 10.5 | 5938 | 6928 | inactive |
| Src64B | 1 | 1.81 | 1.98 | 6202 | 6011 | inactive |
| Tsp42El | 1 | 23.4 | 25.6 | 6221 | 6445 | inactive |
| CG12934 | 1 | 6.56 | 8.21 | 6505 | 6616 | inactive |
| CG12934 | 2 | 1.69 | 2.58 | 6230 | 6321 | inactive |
| CG14395 | 1 | 4.11 | 5.47 | 5481 | 5781 | inactive |
| Efhc1.2 | 1 | 0.77 | 1.33 | 522 | 526 | inactive |
| Hsp70Bb + Hsp70Ba + Hsp70Bbb | 1 | 42.6 | 25.5 | 5907 | 5603 | inactive |
| Pgm2b | 1 | 6.62 | 13.2 | 2358 | 6762 | inactive |
| Pgm2b | 2 | 4.78 | 2.16 | 7030 | 6467 | inactive |
| Npc2f | 1 | 4.18 | 4 | 6676 | 6404 | inactive |
| CG7582 | 1 | – | 4.41 | 317 | 1587 | inactive |
| CG17242 | 1 | 2.52 | 1.93 | 6346 | 6428 | inactive |
| CG4367 | 1 | 4.4 | 0.61 | 6289 | 6048 | inactive |
| Rrp45 | 1 | 11.8 | 19.7 | 4282 | 5003 | inactive |
| Rrp45 | 2 | – | – | 298 | 342 | inactive |
| sowi | 1 | 3.84 | 6.11 | 834 | 3698 | inactive |
| sowi | 2 | 2.51 | 3.12 | 6330 | 6669 | inactive |
| CG9664 | 1 | 3.44 | 5.2 | 6134 | 6962 | inactive |
| CG17508 | 1 | 2.75 | 1.17 | 6119 | 6416 | inactive |
| RpL5 | 1 | 2.36 | 3.23 | 1867 | 1704 | inactive |
| RpL5 | 2 | 11.1 | – | 1816 | 212 | inactive |
| CG31103 | 1 | 1.45 | 6.12 | 5941 | 6028 | inactive |
| Cht5 | 1 | 5.86 | 5.78 | 6516 | 7261 | inactive |
| Cht5 | 2 | 9.9 | 1.8 | 6123 | 6175 | inactive |
| CG2750 | 1 | 6.56 | 6.24 | 6812 | 7049 | inactive |
| AP-1-2beta | 1 | – | 0.36 | 1183 | 5626 | inactive |
| AP-1-2beta | 2 | 1.62 | 2.93 | 5316 | 5390 | inactive |
| Spt | 1 | 0.42 | – | 473 | 471 | inactive |
| Spt | 2 | 0.4 | 6.94 | 499 | 1829 | inactive |
| Obp99c | 1 | – | – | 382 | 360 | inactive |
| dpr18 | 1 | 6.2 | 4.07 | 6311 | 6660 | inactive |
| Ctf4 | 1 | 8.34 | 7.63 | 5273 | 5845 | inactive |
| nwk | 1 | 2.52 | 0.52 | 6234 | 6702 | inactive |
| ND-B12 | 1 | 0.89 | 1.49 | 5973 | 6123 | active |
| CG42306 + Gint3 | 1 | 4.75 | 4.05 | 6057 | 6418 | inactive |
| CG42306 + Gint3 | 2 | 10.6 | 5.72 | 5766 | 5922 | inactive |
| CG31821 | 1 | – | 14.4 | 397 | 4532 | inactive |
| CG17724 | 1 | 6.05 | 5.4 | 6430 | 6485 | inactive |
| CG17724 | 2 | 4.92 | 10.5 | 6710 | 6617 | inactive |
| Pdss2 | 1 | 8.61 | 12.6 | 6658 | 3396 | inactive |
| Cpr67B | 1 | 4.88 | 4.54 | 6080 | 6252 | inactive |
| CG31741 | 1 | 5.17 | 1.58 | 6360 | 6568 | inactive |
| mew | 1 | 2.11 | 2.86 | 6491 | 6302 | inactive |
| mew | 2 | 4.37 | 2.15 | 6155 | 6428 | inactive |
| ng2 + ng1 | 1 | 3.36 | 4.06 | 5588 | 5645 | inactive |
| Muc18B | 1 | 1.93 | 6.02 | 6123 | 6746 | inactive |
| Muc18B | 2 | 7.97 | 12.8 | 2774 | 3667 | inactive |
| CCAP-R | 1 | 2.41 | 5.05 | 6724 | 6460 | inactive |
| CCAP-R | 2 | 2.82 | 3.96 | 6622 | 6995 | inactive |
| CCAP-R | 3 | 0.97 | – | 413 | 312 | inactive |
| Eglp3 | 1 | 4.21 | 6.85 | 6682 | 6903 | inactive |
| Eglp3 | 2 | 4.16 | 13.4 | 6157 | 5948 | inactive |
| yl | 1 | 4.26 | 7.19 | 5936 | 6324 | inactive |
| yl | 2 | 10.9 | 7.84 | 4814 | 5485 | inactive |
| GstD6 | 1 | 7.87 | 12.6 | 6528 | 7095 | inactive |
| GstD6 | 2 | 6.23 | 2.01 | 5921 | 6254 | inactive |
